Assay results reported in publication PMC7096384, “Antiviral Activity of Chicken Cathelicidin B1 Against Influenza A Virus” (Frontiers in Microbiology, 2020).

How the values were obtained:
[1] = test system: PR8-induced gene expression of cytokines in HD11 macrophages; format: cell-based, chicken
H1N1/PR8 = format: cell-based, Influenza A virus; conditions: pre- or post-incubation of cells with peptide for 1 h, H1N1/PR8, HD11 and MDCK cells

Row | Sequence | PR8-induced gene expression of IFN-β, IL-1β, IL-6, and IL-8 [1] | effect on viral infection when peptide is given before or after virus inoculation (H1N1/PR8)
1 | LLGDFFRKSKEKIGKEFK RIVQRIKDFLRNLVPRTES [LL-37, human cathelicidin, 37 amino acids, used for comparison, reference compound] | the inhibition was not as pronounced as observed for CATH-B1 | –
2 | PIRNWWIRIWEWLNGIRK RLRQRSPFYVRGHLNVTSTPQP [CATH-B1, chicken cathelicidin, 40 amino acids, synthesized by Fmoc-chemistry] | downregulated | did not reduce viral infection
3 | RFGRFLRKIRRFRPKVTITIQGSARF [CATH-2, chicken cathelicidin, 26 amino acids] | the inhibition was not as pronounced as observed for CATH-B1 | –
